PSTVd loop 15 mutant pool in Nicotiana benthamiana

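A pool of all variants was put on leaves of three Nicotiana benthamiana plants. Progeny were sequenced from the inoculated region (day 5), the margin of the inoculated leaf (day 10) and systemic leaves (day 12).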

PSTVd intermediate strain, loop 15: wild type GGAAACCGCUACUAC, pool pattern GGAAACCGNNNNNNC; upper and lower strand joined, each 5' to 3', the first 7 letters being the upper strand, closing pairs included.

Values are reads per thousand in the sample; higher means more abundant, 0 means not found. Each value is the mean of three plants. "Pool" is the share in the plasmid pool used as inoculum, on the same scale. The inoculated region was read from the minus strand, the other sites from the plus strand.

- GGAAACCGGGGAGGC (pool 0.160) -> inoculated region 0.0578; leaf margin 0; systemic leaves 0
- GGAAACCGAAGGCUC (pool 0.192) -> inoculated region 0.107; leaf margin 0.00668; systemic leaves 0
- GGAAACCGCCCAAAC (pool 0.384) -> inoculated region 0.357; leaf margin 0.107; systemic leaves 0.0161
- GGAAACCGAUUAUAC (pool 0.192) -> inoculated region 0.309; leaf margin 0.118; systemic leaves 0.104
- GGAAACCGUAGUAGC (pool 0.176) -> inoculated region 0.105; leaf margin 0.0134; systemic leaves 0
- GGAAACCGAGUGAGC (pool 0.144) -> inoculated region 0.0869; leaf margin 0; systemic leaves 0.00537
- GGAAACCGGUGGACC (pool 0.240) -> inoculated region 0.115; leaf margin 0.00668; systemic leaves 0
- GGAAACCGCAUCCCC (pool 0.304) -> inoculated region 0.0962; leaf margin 0.0134; systemic leaves 0
- GGAAACCGCCGCCCC (pool 0.352) -> inoculated region 0.147; leaf margin 0.00539; systemic leaves 0
- GGAAACCGCCCUGCC (pool 0.256) -> inoculated region 0.0407; leaf margin 0.00539; systemic leaves 0
- GGAAACCGAUACACC (pool 0.240) -> inoculated region 0.0733; leaf margin 0; systemic leaves 0.00537
- GGAAACCGGGGAUUC (pool 0.304) -> inoculated region 0.0687; leaf margin 0.00668; systemic leaves 0
- GGAAACCGGGGUCCC (pool 0.256) -> inoculated region 0.112; leaf margin 0.00668; systemic leaves 0
- GGAAACCGGAGUGUC (pool 0.224) -> inoculated region 0.0803; leaf margin 0.00539; systemic leaves 0.00537
- GGAAACCGUUAGAGC (pool 0.320) -> inoculated region 0.233; leaf margin 0.0772; systemic leaves 0.0767
- GGAAACCGUCUCGAC (pool 0.224) -> inoculated region 0.0451; leaf margin 0.0195; systemic leaves 0
- GGAAACCGGUCGGGC (pool 0.336) -> inoculated region 0.0965; leaf margin 0.0269; systemic leaves 0
- GGAAACCGCCUGUUC (pool 0.224) -> inoculated region 0.325; leaf margin 0.0757; systemic leaves 0.0411
- GGAAACCGCACGGUC (pool 0.304) -> inoculated region 0.354; leaf margin 0.121; systemic leaves 0.00537
- GGAAACCGGAGAGAC (pool 0.112) -> inoculated region 0.0858; leaf margin 0.0336; systemic leaves 0.00760
- GGAAACCGAAUCGAC (pool 0.288) -> inoculated region 0.0867; leaf margin 0.0121; systemic leaves 0
- GGAAACCGCGACCGC (pool 0.160) -> inoculated region 0.0987; leaf margin 0.00668; systemic leaves 0
- GGAAACCGAAGCCGC (pool 0.272) -> inoculated region 0.0966; leaf margin 0; systemic leaves 0.00760

The opening 2 entries, copied out:

{"sequence": "GGAAACCGGGGAGGC", "pool": "0.160", "inoculated region": 0.0578, "leaf margin": 0, "systemic leaves": 0}
{"sequence": "GGAAACCGAAGGCUC", "pool": "0.192", "inoculated region": 0.107, "leaf margin": 0.00668, "systemic leaves": 0}

With 43,870-66,106 reads a sample, very low values are single reads. The authors trace changes outside the varied positions to PCR and sequencing errors or to mutation in the plant; presence does not show that a variant is infectious alone. Wild type was 33.9 per thousand in the pool and the most common sequence in every sample (inoculated region 202, 200, 159; leaf margin 724, 746, 710; systemic leaves 856, 883, 880).

Values reported by Wu et al. 2024 (doi:10.1371/journal.ppat.1012142).